Measurements: article PMC9854868, “Structure–Activity Relationship Studies of Substitutions of Cationic Amino Acid Residues on Antimicrobial Peptides” (Antibiotics, 2022)
Square brackets hold non-standard residues; d marks the D form. Peptide text beside a SMILES is read from it. Orn = NCCC[C@H](N)C(=O)O; Dab = NCC[C@H](N)C(=O)O; Aib = CC(C)(N)C(=O)O

Test: CD spectrometry, α-helix content
Assay type: physicochemical
Conditions: 20 mM phosphate buffer pH 7.4 with 1% SDS, peptide 100 µM, calculated from the CD spectra

Row | SMILES | α-helix contents [%]
1 | CC[C@H](C)[C@H](NC(=O)CN)C(=O)N[C@@H](CCCN)C(=O)N[C@@H](CCCN)C(=O)N[C@@H](Cc1ccccc1)C(=O)N[C@@H](CC(C)C)C(=O)N[C@@H](CCCN)C(=O)N[C@@H](CO)C(=O)NC(C)(C)C(=O)N[C@@H](CCCN)C(=O)N[C@@H](CCCN)C(=O)N[C@@H](Cc1ccccc1)C(=O)N[C@H](C(=O)N[C@@H](CCCN)C(=O)NC(C)(C)C(=O)N[C@@H](Cc1ccccc1)C(=O)N[C@@H](CCCN)C(N)=O)C(C)C [Peptide 2] (H-GI[Orn][Orn]FL[Orn]S[Aib][Orn][Orn]FV[Orn][Aib]F[Orn]-NH2) | 26.4
2 | CC[C@H](C)[C@H](NC(=O)CN)C(=O)N[C@@H](Cc1c[nH]cn1)C(=O)N[C@@H](Cc1c[nH]cn1)C(=O)N[C@@H](Cc1ccccc1)C(=O)N[C@@H](CC(C)C)C(=O)N[C@@H](Cc1c[nH]cn1)C(=O)N[C@@H](CO)C(=O)NC(C)(C)C(=O)N[C@@H](Cc1c[nH]cn1)C(=O)N[C@@H](Cc1c[nH]cn1)C(=O)N[C@@H](Cc1ccccc1)C(=O)N[C@H](C(=O)N[C@@H](Cc1c[nH]cn1)C(=O)NC(C)(C)C(=O)N[C@@H](Cc1ccccc1)C(=O)N[C@@H](Cc1c[nH]cn1)C(N)=O)C(C)C [Peptide 5] (H-GIHHFLHS[Aib]HHFVH[Aib]FH-NH2) | 10.1
3 | CC[C@H](C)[C@H](NC(=O)CN)C(=O)N[C@@H](CCCCN)C(=O)N[C@@H](CCCCN)C(=O)N[C@@H](Cc1ccccc1)C(=O)N[C@@H](CC(C)C)C(=O)N[C@@H](CCCCN)C(=O)N[C@@H](CO)C(=O)NC(C)(C)C(=O)N[C@@H](CCCCN)C(=O)N[C@@H](CCCCN)C(=O)N[C@@H](Cc1ccccc1)C(=O)N[C@H](C(=O)N[C@@H](CCCCN)C(=O)NC(C)(C)C(=O)N[C@@H](Cc1ccccc1)C(=O)N[C@@H](CCCCN)C(N)=O)C(C)C [Peptide 1] (H-GIKKFLKS[Aib]KKFVK[Aib]FK-NH2) | 26.3
4 | CC[C@H](C)[C@H](NC(=O)CN)C(=O)N[C@@H](CCN)C(=O)N[C@@H](CCN)C(=O)N[C@@H](Cc1ccccc1)C(=O)N[C@@H](CC(C)C)C(=O)N[C@@H](CCN)C(=O)N[C@@H](CO)C(=O)NC(C)(C)C(=O)N[C@@H](CCN)C(=O)N[C@@H](CCN)C(=O)N[C@@H](Cc1ccccc1)C(=O)N[C@H](C(=O)N[C@@H](CCN)C(=O)NC(C)(C)C(=O)N[C@@H](Cc1ccccc1)C(=O)N[C@@H](CCN)C(N)=O)C(C)C [Peptide 3] (H-GI[Dab][Dab]FL[Dab]S[Aib][Dab][Dab]FV[Dab][Aib]F[Dab]-NH2) | 8.9
5 | CC[C@H](C)[C@H](NC(=O)CN)C(=O)N[C@@H](CCCNC(=N)N)C(=O)N[C@@H](CCCNC(=N)N)C(=O)N[C@@H](Cc1ccccc1)C(=O)N[C@@H](CC(C)C)C(=O)N[C@@H](CCCNC(=N)N)C(=O)N[C@@H](CO)C(=O)NC(C)(C)C(=O)N[C@@H](CCCNC(=N)N)C(=O)N[C@@H](CCCNC(=N)N)C(=O)N[C@@H](Cc1ccccc1)C(=O)N[C@H](C(=O)N[C@@H](CCCNC(=N)N)C(=O)NC(C)(C)C(=O)N[C@@H](Cc1ccccc1)C(=O)N[C@@H](CCCNC(=N)N)C(N)=O)C(C)C [Peptide 4] (H-GIRRFLRS[Aib]RRFVR[Aib]FR-NH2) | 18.4
